Experimental findings from US20250302983A1, “Saponin Conjugates” (priority 2018, published 2025) are described below.

In one experiment the test system is human A431 tumor cells. Put plainly: A431 xenograft animal tumor model, tumor volume after treatment (Example A). The experiment is classed as in vivo, Balb/c nude mice. How it is done:
Female Balb/c nude mice were injected subcutaneously with a suspension of human A431 tumor cells. Under the skin of the mice, a human epidermal carcinoma developed in the xenograft animal tumor model. After injection of the tumor cells, the xenograft tumor was allowed to develop to a size of approximately 170-180 mm^3. The A431 tumor cells have the following characteristics: high EGFR expressors, medium CD71 expressors, low HER2 expressors.
In Table A, the results of the treatment of control mice and tumor-bearing mice are presented. Tumor-bearing mice were treated with the indicated antibodies directed to either human Her2/neu, human EGFR, or human CD71, which are cell-surface receptors on the xenograft tumor. Cetuximab was covalently conjugated with saponin SO1861. […] The ADCs trastuzumab-saporin (covalent conjugate) and anti-CD71 mAb (OKT-9, IgG)-saporin (covalent conjugate) were tested for their tumor-attacking efficacy in the mice, measured as tumor volume in time after start of the treatment with the ADCs. The dose of the ADCs was sub-optimal in the tumor model. That is to say, from previous experiments, it was established at which sub-optimal dose of the ADCs no tumor-regression or arrest of tumor growth would be observable.

Experiment [1] relates to MDA-MB-468 cells (EGFR++, HER2−). Briefly: targeted protein toxin mediated cell killing on MDA-MB-468 cells. The class given is cell-based, human.

Turning to “Cetuximab-SO1861: saponin SO1861-EMCH covalently coupled to reduced cysteines of Cetuximab”, in the experiment with human A431 tumor cells, the “outcome (death/euthanasia or survival)” value is “death/euthanasia”. In the experiment with human A431 tumor cells (ADCs at sub-optimal dose, tumor ~170-180 mm^3 at start of treatment), the “tumor size (volume in mm^3)” value is reported as 2000 mm^3.
Turning to “Cetuximab-Cys-(dendron(-L-SO1861)^4)^3,9: Dendron(-L-SO1861)^4 conjugated to cetuximab via cysteine residues, DAR3,9”, in experiment [1] (+ 10 pM cetuximab-saporin), the IC50 stood at 0.4 nM. The toxin-mediated cell killing entry in experiment [1] (alone) was “not induced”.
